Results of unrelated studies side by side (data: NIAID ChemDB).

All rows: tests in culture; organism: Human cytomegalovirus; method: cytopathic effect; read-out: EC50

Rows are shuffled and stem from different studies. ECn: concentration that inhibits the pathogen or its effect by n%.

{"structure": "O=C(O)c1cc(O)ccc1O", "cell line": "HEL", "strain": "DAVIS", "value": "4.5 µg/mL"}
{"structure": "Nc1nc(F)nc2c1ncn2/C=C1/CC1CO", "cell line": "HFF", "strain": "AD169", "value": ">4 µM"}
{"structure": "N=c1ccc(=Nc2ccc(N)c3c(O)c4ccccc4c(O)c23)c2c(=O)c3ccccc3c(=O)c1=2", "cell line": "HFF", "strain": "AD169", "value": "30 µM"}
{"structure": "Nc1nc2ncn(COCCCl)c2c(=O)[nH]1", "cell line": "VERO", "strain": "AD169", "value": ">128 µg/mL"}
{"structure": "O=C(O)Cc1ccc(O)c(O)c1", "cell line": "HEL", "strain": "AD169", "value": "6.3 µg/mL"}
{"structure": "Nc1ncnc2c1ncn2[C@H]1[C@H](O)[C@H](O)[C@@H](CO)[C@H]1F", "cell line": "HEL", "strain": "DAVIS (100 PFU)", "value": "0.035 µg/mL"}
{"structure": "CC1=C(C)[C@](CO)(c2ccccc2)C[C@H]1n1ccc(N)nc1=O", "cell line": "HEL 299", "strain": "AD169", "value": ">100 µg/mL"}
{"structure": "NC(=O)c1ncn([C@@H]2O[C@H](CO)[C@@H](O)[C@H]2O)n1", "cell line": "HEL", "strain": "AD-169 (100 PFU)", "value": ">100 µg/mL"}
{"structure": "Cc1c(CC(=O)O)ccc(O)c1O", "cell line": "HEL", "strain": "AD169", "value": ">25 µg/mL"}
{"structure": "NC1=Nc2c(ncn2CCCCC(F)(F)P(=O)(O)O)C(=O)C1", "cell line": "MRC-5", "value": ">1000 µM"}
{"structure": "CCNc1ccc(NCC)c2c1C(=O)c1ccccc1C2=O", "cell line": "HFF", "strain": "AD169", "value": ">10 µM"}
{"structure": "C=C(/C=C/P(=O)(O)O)CCn1cnc2c(=O)[nH]c(N)nc21", "cell line": "MRC-5", "strain": "AD169", "value": ">250 µM"}
{"structure": "Cc1cc(Nc2ccc(O)c3c2C(=O)c2ccccc2C3=O)cc(S(=O)(=O)O)c1", "cell line": "HFF", "strain": "AD169", "value": "150 µM"}
{"structure": "O=C(O)Cc1cc(O)ccc1O", "cell line": "HEL", "strain": "AD169", "value": "6.2 µg/mL"}
{"structure": "Cc1cc(C)c(S(=O)(=O)O)c(C)c1Nc1ccc(Nc2c(C)cc(C)c(S(=O)(=O)O)c2C)c2c1C(=O)c1ccccc1C2=O", "cell line": "HFF", "strain": "AD169", "value": ">200 µM"}
{"structure": "CC1=C(C)C(CO)(CO)C[C@H]1n1ccc(N)nc1=O", "cell line": "HEL 299", "strain": "AD169", "value": ">100 µg/mL"}
{"structure": "C[C@H]1C[C@@H](n2cnc3c(N)ncnc32)[C@H](O)[C@@H]1O", "cell line": "HEL", "strain": "AD-169 (100 PFU)", "value": ">100 µg/mL"}
{"structure": "Oc1cccc(O)c1O", "cell line": "HEL", "strain": "AD169", "value": "4 µg/mL"}
{"structure": "NC1=Nc2c(ncn2CCC(/C=C/P(=O)(O)O)CO)C(=O)C1", "cell line": "MRC-5", "value": "39 µM"}
{"structure": "Nc1ncnc2c1ncn2[C@@H]1C=C[C@@H](O)[C@H]1O", "cell line": "HEL", "strain": "AD-169 (100 PFU)", "value": "19.25 µg/mL"}
{"structure": "CC(=O)Nc1ccc(Nc2cc(S(=O)(=O)O)c(N)c3c2C(=O)c2ccccc2C3=O)cc1", "cell line": "HFF", "strain": "AD169", "value": "10 µM"}
{"structure": "Nc1nccc2c1ncn2[C@@H]1C[C@H](CO)[C@@H](O)[C@H]1O", "cell line": "HEL", "strain": "DAVIS (100 PFU)", "value": "8.12 µg/mL"}
{"structure": "Nc1nc(NC2CC2)c2ncn(C=C3CC3CO)c2n1", "cell line": "HFF", "strain": "TOWNE", "value": "2 µM"}
{"structure": "C[C@@H](O)C1=C[C@@H](n2cnc3c(N)ncnc32)[C@H](O)[C@@H]1O", "cell line": "HEL", "strain": "DAVIS (100 PFU)", "value": "0.05 µg/mL"}
{"structure": "Nc1nc(F)nc2c1ncn2/C=C1\\CC1CO", "cell line": "HFF", "strain": "AD169", "value": ">60 µM"}